Source: article PMC11317875 (Chemical Science, 2024)

test system: Mycobacterium tuberculosis; assay: Analysis of F-Glc metabolites in Mtb cytosolic extracts; format: cell-based; settings: 100 μM probe

Compound	cleavage to fluorinated glucose (F-Glc) in cytosolic extracts
OC[C@H]1O[C@H](O[C@H]2O[C@H](CO)[C@@H](O)[C@H](F)[C@H]2O)[C@H](O)[C@@H](O)[C@@H]1O [3F-Tre, 3-deoxy-3-fluoro-trehalose]	does not occur
OC[C@H]1O[C@H](O[C@H]2O[C@H](CO)[C@@H](O)[C@H](O)[C@H]2F)[C@H](O)[C@@H](O)[C@@H]1O [2F-Tre, 2-deoxy-2-fluoro-trehalose]	low levels of 2F-Glc
OC[C@H]1O[C@H](O[C@H]2O[C@H](CF)[C@@H](O)[C@H](O)[C@H]2O)[C@H](O)[C@@H](O)[C@@H]1O [6F-Tre, 6-deoxy-6-fluoro-trehalose]	does not occur
